Pooled drug test results. Numbers come from NIAID ChemDB, via PubChem.

All rows: whole-cell or culture tests; organism: Mycobacterium tuberculosis

a–b is a range or a potency band.

SMILES	strain or isolate	mutations	cell line	read by	measure	tested at	value
CC(=O)c1ccc(C2=CC(=O)c3ccccc3C2=O)n1C	H37Rv	-	-	resazurin	MIC90	-	3.13 µg/mL
O=C(O)c1ccc2c(=O)c3ccccc3oc2c1C(=O)O	H37Rv	-	-	-	inhibition	8 µg/mL	inactive
O=C(C1CCCCC1)N1CCC(NS(=O)(=O)c2cccc3cnccc23)CC1	H37Rv	-	-	resazurin	MIC90	-	>100 µM
Nc1nc(F)c(F)c2c1ncn2[C@@H]1O[C@H](CO)[C@@H](O)[C@H]1O	SRICK1::ADOK	-	-	-	MIC	-	10–100 µg/mL
CC(=O)c1ccc(C2=CC(=O)c3ccccc3C2=O)s1	H37Rv	-	-	resazurin	MIC90	-	>6.25 µg/mL
OB(O)c1cccc2ccccc12	H37Rv	-	-	-	MIC	-	>100 µg/mL
OC(c1cc(-c2ccc(C(F)(F)F)cc2)nc(-c2ccc(C(F)(F)F)cc2)c1)C1CCCCN1	H37Rv	-	-	resazurin	MIC	-	0.78 µg/mL
C[C@]1(COc2ccc(N3CCC(COCc4cccc(C(F)(F)F)c4)CC3)cc2)Cn2cc([N+](=O)[O-])nc2O1	H37Rv	-	-	-	MIC	-	0.024 µg/mL
COc1ccc(/C=N/N=c2/scc(-c3cc4cc(Br)ccc4oc3=O)n2C2CCCCC2)cc1OC	H37Rv	-	-	-	inhibition	6.25 µg/mL	2%
C[N+](C)(C)CC(=O)N/N=C(\CC1OC(=O)c2ccccc21)c1ccccc1O.[Cl-]	H37Rv	-	-	BACTEC	inhibition	12.5 µg/mL	-22%
O=C(Nc1ccc2c(c1)OCO2)N1CCCN(S(=O)(=O)c2cccc3cnccc23)CC1	SRMV2.6	Inosine monophosphate dehydrogenase-resistant	-	resazurin	MIC90	-	>100 µM
O=[N+]([O-])c1cccn2nc(COCCO)nc12	H37Rv	-	-	resazurin	inhibition	6.25 µg/mL	10%
Nc1ccc(S(=O)(=O)c2ccc(O)cc2)cc1	H37Rv	-	-	-	MIC	-	>100 µg/mL
CCOC(=O)c1cc(CN(C)c2ccc(OC(F)(F)F)cc2)on1	H37Rv	-	-	low oxygen	MIC	-	7.5 µM
O=S(=O)([O-])c1cc2nc3c4cccc(S(=O)(=O)[O-])c4c(Nc4ccccc4)cc3[n+](-c3ccccc3)c2cc1Nc1ccccc1.[Na+]	H37Rv	-	-	BACTEC	inhibition	12.5 µg/mL	19%
COC(=O)c1cc2oc3ccc([N+](=O)[O-])cc3c(=O)c2cc1[N+](=O)[O-]	H37Rv	-	-	-	inhibition	4 µg/mL	inactive
CC(=O)c1cc(C)cc(C2=CC(=O)c3ccccc3C2=O)n1	H37Rv	-	-	resazurin	MIC90	-	>6.25 µg/mL
NNc1cccc(Cl)n1	H37Rv	-	-	BACTEC	MIC	-	12.5 µg/mL
CC1=C(c2c(C)cc(O)c3c2C(=O)C(c2c(O)c4c(C)cccc4oc2=O)=C(c2c(O)c4c(C)cccc4oc2=O)C3=O)C(=O)c2c(O)cccc2C1=O	MTCS2	-	-	-	MIC	-	1.22 µg/mL
CC(=O)c1ccc(N=Nc2c(O)c3cccc([N+](=O)[O-])c3[nH]c2=O)cc1	H37Rv	-	-	resazurin	MIC	-	<6.25 µg/mL
O=c1cc(CO)[nH]nc1CO	H37Rv	-	-	BACTEC	MIC bound	-	>12.5 µg/mL
COc1cc(OC)c2cc([N+](=O)[O-])c3ccc(=O)oc3c2c1	H37RvSr	-	-	resazurin	MIC	-	25 µg/mL
C[C@]1(COc2ccc(N3CCC(N4CCN(c5ccc(Cl)cc5)CC4)CC3)cc2)Cn2cc([N+](=O)[O-])nc2O1	H37Rv	-	-	-	MIC	-	0.05 µg/mL
CC(C)(N)C(=O)O.Cl	H37Rv	-	-	-	MIC	-	>100 µg/mL
CCOC(=O)NNC(=O)NCCNC(=O)NNC(=O)OCC	H37Rv	-	-	resazurin	MIC bound	-	>6.25 µg/mL
OCCOCCOCCO	H37Rv	-	-	-	MIC	-	>100 µg/mL
COc1ccc(N=Nc2c(O)c3cccc([N+](=O)[O-])c3[nH]c2=O)cc1	H37Rv	-	-	resazurin	MIC	-	>6.25 µg/mL
O=C(/C=C/c1ccccc1)Oc1ccccc1	H37Rv	-	-	-	MIC	-	100 µg/mL
O=c1[nH]c2c([N+](=O)[O-])cccc2c(O)c1N=Nc1ccccc1[N+](=O)[O-]	H37Rv	-	-	resazurin	MIC	-	<6.25 µg/mL
CCN(CC)CCCCCNc1ccnc(N)n1.Cl	H37Rv	-	-	-	MIC	-	>100 µg/mL
COC(=O)c1cccc2c(=O)c3ccccc3oc12	H37Rv	-	-	-	inhibition	16 µg/mL	inactive
COc1ccccc1N=Nc1c(O)c2cccc([N+](=O)[O-])c2[nH]c1=O	H37Rv	-	-	resazurin	MIC	-	>6.25 µg/mL
CN(Cc1cccc(C(F)(F)F)c1)C1CCN(c2ccc(OC[C@@]3(C)Cn4cc([N+](=O)[O-])nc4O3)cc2)CC1	H37Rv	-	-	-	MIC	-	0.024 µg/mL
CCCC(N)C(=O)O	H37Rv	-	-	-	MIC	-	>100 µg/mL
CCOC([O-])=N/C(C)=N/[n+]1ccccc1	H37Rv	-	-	BACTEC	inhibition	12.5 µg/mL	0%
O=C(NCCCCNC(=O)N1CC1)N1CC1	H37Rv	-	-	-	MIC	-	>100 µg/mL
CO[C@H]1/C=C/O[C@@]2(C)Oc3c(C)c(O)c4c(O)c(c5c(c4c3C2=O)NC2(CCN(CC(C)C)CC2)N=5)=NC(=O)/C(C)=C\C=C\[C@H](C)[C@H](O)[C@@H](C)[C@@H](O)[C@@H](C)[C@H](OC(C)=O)[C@@H]1C	510-3 (RIF-R)	-	-	-	MBC	-	32 µg/mL
NS(=O)(=O)c1ccc(N=NC2C(=O)N(C(=O)CC(=O)Nc3ccc(C(=O)O)cc3)N=C2c2ccccc2)cc1	H37Rv	-	-	BACTEC	MIC bound	-	>12.5 µg/mL
Nc1ncc(Cl)c2c1ncn2[C@@H]1O[C@H](CO)[C@@H](O)[C@H]1O	H37Ra	-	-	-	MIC	-	>100 µg/mL
CN(c1ccccc1)S(=O)(=O)c1ccc(NC(=O)CC(=O)c2ccccc2)cc1	H37Rv	-	-	-	MIC	-	>100 µg/mL
NNC(=O)c1ccncc1	MTB14 (S)	-	-	-	MIC	-	0.12 µg/mL
Cc1cc([N+](=O)[O-])cc2c(=O)c3cc([N+](=O)[O-])ccc3oc12	H37Rv	-	-	-	inhibition	8 µg/mL	inactive
CCOC(=O)c1cc(-c2ccc(OC(F)(F)F)cc2)on1	H37Rv	-	-	low oxygen	MIC	-	17.6 µM
O=C1C=CC(=O)c2c1cccc2-c1ccccc1	H37Rv	-	-	resazurin	MIC90	-	>6.25 µg/mL
O=[N+]([O-])c1ccc([N+](=O)[O-])o1	H37Rv	-	-	-	MIC	-	>100 µg/mL
O=C(c1ccccc1)N1CCN(S(=O)(=O)c2cccc3cnccc23)CC1	SRMV2.6	Inosine monophosphate dehydrogenase-resistant	-	resazurin	MIC90	-	>100 µM
O=c1oc2ccccc2cc1-c1cs/c(=N\N=C\c2cc([N+](=O)[O-])ccc2O)n1C1CCCCC1	H37Rv	-	-	-	EC50	-	>6.25 µg/mL
Nc1ncccn1	H37Rv	-	-	-	MIC	-	>100 µg/mL
CC(=O)c1cccc(C2=CC(=O)c3ccccc3C2=O)n1	H37Rv	-	-	resazurin	MIC90	-	>6.25 µg/mL
Cc1cccc(N=Nc2c(O)c3cccc(C)c3[nH]c2=O)c1	H37Rv	-	-	resazurin	inhibition	6.25 µg/mL	31%
OCCN(CC(F)F)c1ccccc1	H37Rv	-	-	-	MIC	-	>100 µg/mL
O=C(Cc1ccc(F)cc1)N1CCN(S(=O)(=O)c2cccc3cnccc23)CC1	SRMV2.6	Inosine monophosphate dehydrogenase-resistant	-	resazurin	MIC90	-	>100 µM
O=C(O)c1cccc2oc3ccccc3c(=O)c12	H37Rv	-	-	-	inhibition	32 µg/mL	inactive
N#CC(c1ccccc1)c1ccccc1	H37Rv	-	-	-	MIC	-	>100 µg/mL
O=c1[nH]c2c(Cl)c(Cl)ccc2c(O)c1N=Nc1cccc([N+](=O)[O-])c1	H37Rv	-	-	resazurin	MIC	-	>6.25 µg/mL
CCOC(=O)c1cc(CNc2cc(F)cc(F)c2F)on1	H37Rv	-	-	low oxygen	MIC	-	108.9 µM
Cc1cc(C)c2oc3ccccc3c(=O)c2c1	H37Rv	-	-	-	inhibition	32 µg/mL	inactive
Cl.NCCc1nc(-c2nc(C(=O)Nc3ccccc3)cs2)cs1	H37Rv	-	-	BACTEC	inhibition	12.8 µg/mL	25%
COc1ccc(OC)c(/C=N/N=c2/scc(-c3cc4cc(Br)ccc4oc3=O)n2C2CCCCC2)c1	H37Rv	-	-	-	inhibition	6.25 µg/mL	3%
CCOC(=O)c1cc(CNc2ccc(OC)nc2)on1	H37Rv	-	-	resazurin	MIC	-	39.6 µM
CC(=O)NC1C(C2COC(C)(C)O2)OC2OC(C)(C)OC21	H37Rv	-	-	BACTEC	MIC bound	-	>12.5 µg/mL
O=c1cc/c(=N/O)c(=O)/c1=N/O	H37Rv	-	-	-	MIC	-	>100 µg/mL
Nc1nc(F)cc2c1ncn2[C@@H]1O[C@H](CO)[C@@H](O)[C@H]1O	SRICK1	-	-	-	MIC	-	>100 µg/mL
O=c1oc2ccc(Br)cc2cc1-c1cs/c(=N/N=C/c2ccc(Cl)c(Cl)c2)n1C1CCCCC1	H37Rv	-	-	-	EC50	-	>6.25 µg/mL
NC[C@@H]1O[C@H](O[C@H]2[C@@H](O)[C@H](O[C@@H]3[C@@H](O)[C@H](N)C[C@H](N)[C@H]3O[C@H]3O[C@H](CO)[C@@H](O)[C@H](O)[C@H]3N)O[C@@H]2CO)[C@H](N)[C@@H](O)[C@@H]1O	MTB15 (S)	-	-	-	MIC	-	1.5 µg/mL
COc1ccc2cc([N+](=O)[O-])c3ccc(=O)oc3c2c1	H37RvRr	-	-	resazurin	MIC	-	50 µg/mL
O=C(O)C(O)C(O)C(=O)O	H37Rv	-	-	-	MIC	-	>100 µg/mL
N#Cc1ccc2oc3ccccc3c(=O)c2c1	H37Rv	-	-	-	inhibition	8 µg/mL	inactive
C[C@H](CCC(=O)O)[C@H]1CC[C@H]2[C@@H]3[C@H](O)C[C@@H]4C[C@H](O)CC[C@]4(C)[C@H]3C[C@H](O)[C@]12C	H37Rv	-	-	-	MIC	-	100 µg/mL
Cc1cccc(/C=N/Nc2cc(C)c3ccccc3n2)n1	H37Rv	-	VERO	-	MIC	-	12.5 µg/mL
CC(=O)c1csc(C2=CC(=O)c3ccccc3C2=O)c1	H37Rv	-	-	resazurin	MIC90	-	>6.25 µg/mL
COc1ccc(/C=C/C(=O)c2c(O)cc(C)oc2=O)cc1OC	H37Rv	-	-	BACTEC	inhibition	12.5 µg/mL	21%
O=C(c1ccccc1)C1C(c2ccccc2)N1Cc1ccccc1	H37Rv	-	-	-	MIC	-	>100 µg/mL
O=C(Cc1ccc([N+](=O)[O-])cc1)N1CCN(S(=O)(=O)c2cccc3cnccc23)CC1	SRMV2.6	Inosine monophosphate dehydrogenase-resistant	-	resazurin	MIC90	-	>250 µM
Cc1cc(Cl)ccc1Nc1sc(C(=O)c2cc3cc(Cl)ccc3o2)c(N)c1C#N	H37Rv	-	-	BACTEC	MIC bound	-	>12.5 µg/mL
CCOC(=O)c1cc(CN(C)c2cccc3ccccc23)on1	H37Rv	-	-	-	MIC	-	6.5 µM
COC1=C(OC)C(=O)C(SCCCCCCC2CCCCC2)=C(C)C1=O	H37Rv	-	-	resazurin	MIC bound	-	>6.25 µg/mL
O=C(C(=O)c1ccccc1)c1ccccc1	H37Rv	-	-	-	MIC	-	>100 µg/mL
CCOC(=O)C(NC(=O)c1ccccc1)(N1CCN(c2cc3c(cc2F)c(=O)c(C(=O)O)cn3CC)CC1)C(F)(F)F	H37Rv	-	-	resazurin	inhibition	6.25 µg/mL	99%
Nc1nccc(Cl)n1	H37Rv	-	-	-	MIC	-	>100 µg/mL
O=C1C(=O)c2nc3ccccc3nc2-c2ccccc21	H37Rv	-	-	BACTEC	MIC bound	-	≤12.5 µg/mL
CCN(CC)CCCC(C)=O.Cl	H37Rv	-	-	-	MIC	-	>100 µg/mL
COc1cc2c(cc1OC)C1CC3(CCN1CC2)CC(=O)NC3=O	H37Rv	-	-	BACTEC	MIC	-	≥12.5 µg/mL
Cc1cc2oc3ccc([N+](=O)[O-])cc3c(=O)c2cc1[N+](=O)[O-]	H37Rv	-	-	-	inhibition	8 µg/mL	inactive
Cc1cccc2nc3nc(Cl)c(Cl)nc3n12	H37Rv	-	-	BACTEC	MIC bound	-	>12.5 µg/mL
O=C(O)c1cccc2c(=O)c3ccccc3oc12	H37Rv	-	-	-	inhibition	16 µg/mL	inactive
CC(C)(C)C1=CC(=CC=C2C=CN(CCO)C=C2)C=C(C(C)(C)C)C1=O	H37Rv	-	-	BACTEC	inhibition	12.5 µg/mL	64%
CN(c1ccccc1)C1CCN(c2ccc(OC[C@@]3(C)Cn4cc([N+](=O)[O-])nc4O3)cc2)CC1	H37Rv	-	-	-	MIC	-	0.024 µg/mL

9 of the rows above, restated:

SMILES | strain or isolate | mutations | cell line | read by | measure | tested at | value
Cl.NCCc1nc(-c2nc(C(=O)Nc3ccccc3)cs2)cs1 | H37Rv | - | - | BACTEC | inhibition | 12.8 µg/mL | 25%
O=c1cc/c(=N/O)c(=O)/c1=N/O | H37Rv | - | - | - | MIC | - | >100 µg/mL
COC1=C(OC)C(=O)C(SCCCCCCC2CCCCC2)=C(C)C1=O | H37Rv | - | - | resazurin | MIC bound | - | >6.25 µg/mL
O=C(c1ccccc1)N1CCN(S(=O)(=O)c2cccc3cnccc23)CC1 | SRMV2.6 | Inosine monophosphate dehydrogenase-resistant | - | resazurin | MIC90 | - | >100 µM
O=c1cc(CO)[nH]nc1CO | H37Rv | - | - | BACTEC | MIC bound | - | >12.5 µg/mL
Nc1ccc(S(=O)(=O)c2ccc(O)cc2)cc1 | H37Rv | - | - | - | MIC | - | >100 µg/mL
CC(=O)c1ccc(N=Nc2c(O)c3cccc([N+](=O)[O-])c3[nH]c2=O)cc1 | H37Rv | - | - | resazurin | MIC | - | <6.25 µg/mL
COc1ccc(/C=N/N=c2/scc(-c3cc4cc(Br)ccc4oc3=O)n2C2CCCCC2)cc1OC | H37Rv | - | - | - | inhibition | 6.25 µg/mL | 2%
Cc1cccc(N=Nc2c(O)c3cccc(C)c3[nH]c2=O)c1 | H37Rv | - | - | resazurin | inhibition | 6.25 µg/mL | 31%

Rows are shuffled and stem from different studies. ECn: concentration that inhibits the pathogen or its effect by n%. MIC bound: limit read from a one-dose screen. For "inactive" no cut-off is given. Inhibition is in % at the dose shown (toxicity tests: loss of growth or viability). MIC50, MIC90 and the like: level of inhibition, or share of isolates inhibited. An empty or dashed field is not shown.